Experimental data taken from patent EP3603649A1 (priority 2018, dated 2020).

Test system: C. elegans animals expressing E200K mutated human PrP
Assay: Neuronal loss (number of GFP positive PLM neurons) in transgenic C. elegans
Details: tested 1 to 500 µM vs vehicle

`COC[C@H]1O[C@@H]2O[C@H]3[C@H](O)[C@@H](OC)[C@@H](O[C@H]4[C@H](O)[C@@H](OC)[C@@H](O[C@H]5[C@H](O)[C@@H](OC)[C@@H](O[C@H]6[C@H](O)[C@@H](OC)[C@@H](O[C@H]7[C@H](O)[C@@H](OC)[C@@H](O[C@H]8[C@H](O)[C@@H](OC)[C@@H](O[C@H]1[C@H](O)[C@H]2OC)O[C@@H]8COC)O[C@@H]7COC)O[C@@H]6COC)O[C@@H]5COC)O[C@@H]4COC)O[C@@H]3COC` [DIMEB, heptakis(2,6-O-dimethyl)beta-cyclodextrin] was tested, and the “concentrations that significantly restored the number of mechano-sensory neurons” value was no less than 10 µM.
